Compound potency records, mixed from different reports. Data source: NIAID ChemDB in PubChem.

Common to all: cytotoxicity tests; cells: HEL; measure: CC50

Blank or dashed fields: not listed here.

smiles	read by	result
CCOc1ccc(-c2cc3cn([C@H]4C[C@H](O)[C@@H](CO)O4)c(=O)nc3o2)cc1		>200 µM
Cc1c(Br)cc(Br)c2ncc(CSCCc3ccccc3)n12		>50 µg/mL
Cc1cccn2c(CSCc3ccccc3)cnc12		8 µg/mL
O=C(O)c1ccc(CS(=O)(=O)c2cccc[n+]2[O-])cc1		>100 µg/mL
C[C@@H](NC(=O)C1(Cc2ccccc2)CCN1C(=O)OCc1ccccc1)C(=O)OC(C)(C)C		37 µM
Cn1ccnc1-c1cn([C@H]2C[C@H](O)[C@@H](CO)O2)c(=O)[nH]c1=O		>200 µg/mL
CC(Cl)(c1ccccc1)S(=O)(=O)c1cccc[n+]1[O-]		>20 µg/mL
Cc1cc(Br)cn2c(CSCc3ccccc3)cnc12		>50 µg/mL
C[C@@H](NC(=O)N1C(=O)C[C@@]1(Cc1ccccc1)C(=O)OC(C)(C)C)c1ccccc1		70 µM
Cc1ccn2c(CSCc3ccccc3)c(C)nc2c1		>50 µg/mL
Cc1cc(-c2ccccc2)cn2c(CSCCc3ccccc3)cnc12		31 µg/mL
CC#Cc1nc2c(N)ncnc2n1[C@H]1C[C@H](O)[C@@H](CO)O1		40 µg/mL
Cc1ccc(C)c(CS(=O)c2c(C)ccc[n+]2[O-])c1		42 µg/mL
CCCCCCCCCC[N+](C)(C)CCCNCc1c(O)cc2c(c1O)-c1cc(ccc1O)[C@H]1NC(=O)[C@@H]3NC(=O)C4NC(=O)[C@@H](Cc5ccc(c(Cl)c5)Oc5cc3cc(c5O)Oc3ccc(cc3Cl)[C@@H](O)[C@H](NC1=O)C(=O)N[C@@H]2C(=O)O)NC(=O)[C@H](N)c1ccc(O)c(c1)Oc1cc(O)cc4c1		≥200 µM
CC(C)(C)c1nc2ccccn2c1NC(=S)Nc1ccccc1		>50 µg/mL
Cc1ccc(C)c(CS(=O)c2cccc[n+]2[O-])c1		>50 µg/mL
OC[C@H]1CC(n2cnc3c(NC4CC4)ncnc32)C[C@@H]1CO		>200 µg/mL
COc1ccc[n+]([O-])c1SCc1cc(C)ccc1C		2 µg/mL
O=c1[nH]c(=O)n(C2C[C@H](CO)[C@@H](CO)C2)cc1I		>200 µg/mL
CC(C)CCOCCCCCCCCCc1cc2cn([C@H]3C[C@H](O)[C@@H](CO)O3)c(=O)nc2o1		>200 µM
Cc1ccn2c(CSCc3ccccc3)cnc2c1		45 µg/mL
Nc1nc2c(ncn2COCCO)c(=O)[nH]1		87 µg/mL
O=S(=O)(Cc1ccccc1)c1cccc[n+]1[O-]		>50 µg/mL
Nc1nc2c(ncn2COCCO)c(=O)[nH]1		169 µg/mL
Cc1ccc(C)c(C(c2ccccc2)S(=O)(=O)c2cccc[n+]2[O-])c1		>20 µg/mL
O=c1[nH]c(=O)n([C@@H]2C[C@H](O)[C@@H](CO)O2)cc1-c1ccco1		110 µg/mL
O=c1[nH]cnc2c1ncn2[C@@H]1O[C@H](CO)[C@H]1CO		351 µg/mL
CCCCCOc1ccc(-c2cc3cn([C@H]4C[C@H](O)[C@@H](CO)O4)c(=O)nc3o2)cc1		>200 µM
Cc1c(S(=O)(=O)c2ccc(Cl)cc2)c(NC(=O)C(F)(F)F)n(Cc2ccc(Cl)cc2)c1C		50 µg/mL
Cc1ccc(CS(=O)(=O)c2cccc[n+]2[O-])cc1		24 µg/mL
Cc1cc(C#CC#Cc2cn([C@H]3C[C@H](O)[C@@H](CO)O3)c(=O)[nH]c2=O)ccc1F		45 µM
COc1ccc([N+](=O)[O-])cc1CS(=O)(=O)c1cccc[n+]1[O-]		17 µg/mL
Cc1c(Br)cc(Br)c2ncc(CSCc3cccs3)n12		>50 µg/mL
Cc1ccn2c(CSCCO)cnc2c1		70 µg/mL
CC(C)(C)[Si](C)(C)OC[C@H]1O[C@@H](n2ccc3nc(CN)cn3c2=O)[C@H](O[Si](C)(C)C(C)(C)C)[C@@H]1O[Si](C)(C)C(C)(C)C		9.6 µM
COc1ccc(-c2cc(C)c3ncc(CSCCc4ccccc4)n3c2)cc1		25.8 µg/mL
CC(C)(C)c1nc2ccccn2c1NC(=O)Nc1ccccc1		>50 µg/mL
Nc1nc(=O)n([C@@H]2O[C@H](CO)[C@@H](O)[C@@H]2F)cc1I		81 µM
O=c1[nH]c(=O)n([C@@H]2C[C@H](O)[C@@H](CO)O2)cc1-c1cccs1		180 µg/mL
Nc1nc2c(ncn2COCCO)c(=O)[nH]1		>200 µg/mL
Cc1ccccc1C(Sc1cccc[n+]1[O-])C(N)=O		>50 µg/mL
Cc1cc(-c2cccc(C#N)c2)cn2c(CSCCc3ccccc3)cnc12		>50 µg/mL
Cc1ccccc1CS(=O)(=O)c1c(C)ccc[n+]1[O-]		17 µg/mL
Cc1cc(-c2cccc(O)c2)c2ncc(CSCCc3ccccc3)n2c1		11.4 µg/mL
CC(C)CS[C@@H]1C=C[C@H](n2cnc3c(N)ncnc32)C1		50 µg/mL
Cc1ccc(C)c(C(Cl)S(=O)(=O)c2cccc(C)[n+]2[O-])c1		≥100 µg/mL
CCCCc1cc2cn([C@H]3C[C@H](O)[C@@H](CO)O3)c(=O)nc2s1		>200 µM
C[C@@H](NC(=O)N1C(=O)C[C@@]1(Cc1ccccc1)C(=O)O)c1ccccc1		>200 µM
Nc1nc2c(ncn2COC(CO)CO)c(=O)[nH]1		45.3 µg/mL
COc1ccc(-c2cc3cn([C@H]4C[C@H](O)[C@@H](CO)O4)c(=O)nc3o2)cc1		>200 µM
CC(c1ccccc1)S(=O)c1cccc[n+]1[O-]		1.4 µg/mL
Cc1cccn2c(CSCc3ccccc3)cnc12		8 µg/mL
O=c1[nH]c(=O)n([C@H]2C[C@H](O)[C@@H](CO)O2)cc1C#CC#Cc1ccc(OC(F)(F)F)cc1		55 µM
CCCCCCCCc1cc2cn([C@H]3C[C@H](O)[C@@H](CO)O3)c(=O)nc2o1		>50 µM
C#Cc1cn(S(=O)(=O)c2ccc(C)cc2)c(=O)[nH]c1=O		29 µM
COC1(OC)CCC2(C)C(CCC3C2CCC2(COC(C)=O)C3CC(O)C23OC3C(OC(C)=O)C(C)C(C)C(C)(C)O)C1	MTT	>50 µg/mL
CCCCc1ccc(CNCc2c(O)cc3c(c2O)-c2cc(ccc2O)[C@H]2NC(=O)[C@@H]4NC(=O)[C@H]5NC(=O)[C@@H](Cc6ccc(c(Cl)c6)Oc6cc4cc(c6O)Oc4ccc(cc4Cl)[C@@H](O)[C@H](NC2=O)C(=O)N[C@@H]3C(=O)O)NC(=O)[C@H](N)c2ccc(O)c(c2)Oc2cc(O)cc5c2)cc1		>50 µM
Nc1nc(N)c2ncn(CCOCP(=O)(O)O)c2n1		129 µM
CCCCCCCc1cc2cn(COCCO)c(=O)nc2o1		140 µM
C[C@@H](NC(=O)N1CCC1(Cc1ccccc1)C(=O)OC(C)(C)C)c1ccccc1		57 µM
Cc1cc(Br)c2ncc(CSCc3ccccc3)n2c1		>50 µg/mL
Nc1ncnc2c1ncn2[C@@H]1C=C(CO)[C@@H](O)[C@H]1O		21.48 µg/mL
N#CC1C(c2ccc(Cl)cc2)Nc2c(ccn2Cc2ccccc2)S1(=O)=O		>20 µg/mL
COc1cccc(-c2cc(C)c3ncc(CSCCc4ccccc4)n3c2)c1		36 µg/mL
CCc1nc2c(N)ncnc2n1[C@H]1C[C@H](O)[C@@H](CO)O1		>200 µg/mL
Cc1c(Br)cc(Br)c2ncc(CSCc3ccccc3)n12		>50 µg/mL
CCCCCC#Cc1nc2c(N)ncnc2n1[C@H]1C[C@H](O)[C@@H](CO)O1		6 µg/mL
O=S(=O)(Cc1cccc(Br)c1)c1cccc[n+]1[O-]		7.4 µg/mL
Cc1cccn2c(CSCc3ccccc3)c(-c3ccccc3)nc12		13 µg/mL
Nc1nccc2c1ncn2[C@@H]1C[C@H](CO)[C@@H](O)[C@H]1O		>50 µg/mL
Cc1cc(-c2ccsc2)c2ncc(CSCCc3ccccc3)n2c1		>50 µg/mL
Cc1ccn2c(COCCO)cnc2c1		>200 µg/mL
O=C(O)CP(=O)(O)O		500 µM
CC(=O)OCC12CCC3C(CCC4CC(O)CCC43C)C1CC(O)C21OC1C(OC(C)=O)C(C)C(C)C(C)(C)OC(C)=O	MTT	>50 µg/mL
O=c1nc2oc(CCCCCCCCCOCC3CCCC3)cc2cn1[C@H]1C[C@H](O)[C@@H](CO)O1		>200 µM
Cc1c(Br)cc(Br)c2ncc(CSCc3ccccc3Cl)n12		43 µg/mL
N#Cc1ccc(CS(=O)(=O)c2cccc[n+]2[O-])cc1		12 µg/mL
O=c1[nH]c(=O)n([C@H]2C[C@H](O)[C@@H](CO)O2)cc1C#CC#Cc1ccccn1		1.5 µM
O=c1[nH]c(=O)n([C@H]2C[C@H](O)[C@@H](CO)O2)cc1-c1cc(Br)no1		>50 µg/mL
Cc1ccc(-c2cc3cn([C@H]4C[C@H](O)[C@@H](CO)O4)c(=O)nc3o2)cc1		>200 µM
O=c1[nH]c(=O)n([C@H]2C[C@H](O)[C@@H](CO)O2)cc1-c1ccc(Br)s1		321 µM
Nc1nccc2c1ncn2[C@@H]1C[C@H](O)[C@@H](O)[C@H]1O		>200 µg/mL
CCCCCCCOc1ccc(-c2cc3cn([C@H]4C[C@H](O)[C@@H](CO)O4)c(=O)nc3o2)cc1		>200 µM
[O-][n+]1cc(Cl)ccc1SCc1ccccc1		66 µg/mL
CCCCC/C=C\c1nc2c(N)ncnc2n1[C@H]1C[C@H](O)[C@@H](CO)O1		20 µg/mL
O=c1[nH]cnc2c1ncn2C1C[C@H](CO)[C@@H](CO)C1		>200 µg/mL
CCCCCCCCC#Cc1c[nH]c(=O)[nH]c1=O		63 µM
CCCCCCc1ccc(C#CC#Cc2cn([C@H]3C[C@H](O)[C@@H](CO)O3)c(=O)[nH]c2=O)cc1		35 µM
CC(c1ccc(S(C)(=O)=O)cc1)S(=O)c1cccc[n+]1[O-]		0.45 µg/mL
O=c1[nH]c(=O)n([C@H]2C[C@H](O)[C@@H](CO)O2)cc1-c1ccc(Br)s1		155 µg/mL
Cc1c(Br)cc(Br)c2ncc(CSCc3ccccc3F)n12		>50 µg/mL
Nc1nc(=O)n([C@H]2C[C@H](O)[C@@H](CO)O2)cc1/C=C/Cl		>727 µM
Cc1cc(-c2cccc([N+](=O)[O-])c2)cn2c(CSCCc3ccccc3)cnc12		43 µg/mL
N[C@H]1C(=O)N[C@@H]2Cc3ccc(c(Cl)c3)Oc3cc4cc(c3O)Oc3ccc(cc3Cl)[C@@H](O)[C@@H]3NC(=O)[C@H](NC(=O)[C@@H]4NC(=O)[C@@H](NC2=O)c2cc(O)cc(c2)Oc2cc1ccc2O)c1ccc(O)c(c1)-c1c(cc(O)c(CN2CCN(N=Cc4ccc(Cl)cc4)CC2)c1O)[C@@H](C(=O)O)NC3=O		>50 µM
CCCCCC#Cc1cn(S(=O)(=O)c2ccc(C)cc2)c(=O)[nH]c1=O		134 µM
N#CC1C(c2ccc(Cl)cc2)Nc2sccc2S1(=O)=O		35 µg/mL
CCCCCc1cc2cn(COCCO)c(=O)nc2o1		>200 µM
CCCCCCCCCCc1cc2cn([C@H]3C[C@H](O)[C@@H](CO)O3)c(=O)nc2s1		54 µM
c1ccc(CCSCc2cnc3ccc(-c4ccccc4)cn23)cc1		9.9 µg/mL
CCCCCCCCC#Cc1cc2cn(COCCO)c(=O)nc2o1		42 µM
Cc1ccccc1CS(=O)(=O)c1cccc[n+]1[O-]		23 µg/mL
CCCCCCCC#Cc1c[nH]c(=O)[nH]c1=O		67 µM
Cc1ccc(C)c(C(C#N)Sc2cccc[n+]2[O-])c1		2 µg/mL
CCCCCCCC#Cc1cc2cn(COCCO)c(=O)nc2o1		>50 µM

The last 9 rows once more:

smiles | read by | result
N#CC1C(c2ccc(Cl)cc2)Nc2sccc2S1(=O)=O |  | 35 µg/mL
CCCCCc1cc2cn(COCCO)c(=O)nc2o1 |  | >200 µM
CCCCCCCCCCc1cc2cn([C@H]3C[C@H](O)[C@@H](CO)O3)c(=O)nc2s1 |  | 54 µM
c1ccc(CCSCc2cnc3ccc(-c4ccccc4)cn23)cc1 |  | 9.9 µg/mL
CCCCCCCCC#Cc1cc2cn(COCCO)c(=O)nc2o1 |  | 42 µM
Cc1ccccc1CS(=O)(=O)c1cccc[n+]1[O-] |  | 23 µg/mL
CCCCCCCC#Cc1c[nH]c(=O)[nH]c1=O |  | 67 µM
Cc1ccc(C)c(C(C#N)Sc2cccc[n+]2[O-])c1 |  | 2 µg/mL
CCCCCCCC#Cc1cc2cn(COCCO)c(=O)nc2o1 |  | >50 µM

Conditions beyond the fields shown may differ between rows. CCn: concentration that lowers growth or viability of the cells by n%.